Results reported in the NIST ThermoML archive (doi:10.1016/j.jct.2013.10.018).

Experiment: xn = mol fraction of the nth substance listed
Conditions: 101 kPa, Liquid; for speed of sound: Sing-around technique in a fixed-path interferometer; for mass density: Vibrating tube method

CCCCOP(=O)(OCCCC)OCCCC [tributyl phosphate] + CCCCCCCCCCO
Conditions	mass density [kg/m3]	speed of sound [m/s]
298.15 K, x1 = 0.019	829.97	1375
298.15 K, x1 = 0.04	833.94	1370
298.15 K, x1 = 0.063	838.11	1365
298.15 K, x1 = 0.099	844.9	1358
298.15 K, x1 = 0.2	862.8	1340
298.15 K, x1 = 0.292	877.97	1325
298.15 K, x1 = 0.398	894.53	1311
298.15 K, x1 = 0.501	909.53	1298
298.15 K, x1 = 0.599	923.45	1289
298.15 K, x1 = 0.703	937.13	1281
298.15 K, x1 = 0.803	949.69	1274
298.15 K, x1 = 0.904	961.91	1269
298.15 K, x1 = 0.92	963.71	1268
298.15 K, x1 = 0.946	966.71	1267
298.15 K, x1 = 0.973	969.8	1266
298.15 K, x1 = 1	–	1265
303.15 K, x1 = 0.019	826.54	1358
303.15 K, x1 = 0.04	830.48	1353
303.15 K, x1 = 0.063	834.63	1348
303.15 K, x1 = 0.099	841.37	1341
303.15 K, x1 = 0.2	859.15	1323
303.15 K, x1 = 0.292	874.23	1308
303.15 K, x1 = 0.398	890.68	1294
303.15 K, x1 = 0.501	905.61	1281
303.15 K, x1 = 0.599	919.44	1273
303.15 K, x1 = 0.703	933.04	1264
303.15 K, x1 = 0.803	945.53	1257
303.15 K, x1 = 0.904	957.67	1252
303.15 K, x1 = 0.92	959.45	1251
303.15 K, x1 = 0.946	962.44	1250
303.15 K, x1 = 0.973	965.51	1249
303.15 K, x1 = 1	–	1248
308.15 K, x1 = 0.019	823.09	1341
308.15 K, x1 = 0.04	827.02	1336
308.15 K, x1 = 0.063	831.14	1331
308.15 K, x1 = 0.099	837.84	1324
308.15 K, x1 = 0.2	855.5	1306
308.15 K, x1 = 0.292	870.47	1292
308.15 K, x1 = 0.398	886.82	1277
308.15 K, x1 = 0.501	901.68	1264
308.15 K, x1 = 0.599	915.41	1256
308.15 K, x1 = 0.703	928.94	1247
308.15 K, x1 = 0.803	941.36	1241
308.15 K, x1 = 0.904	953.42	1236
308.15 K, x1 = 0.92	955.2	1234
308.15 K, x1 = 0.946	958.17	1233
308.15 K, x1 = 0.973	961.22	1232
308.15 K, x1 = 1	–	1231
313.15 K, x1 = 0.019	819.63	1324
313.15 K, x1 = 0.04	823.54	1319
313.15 K, x1 = 0.063	827.64	1314
313.15 K, x1 = 0.099	834.29	1307
313.15 K, x1 = 0.2	851.83	1289
313.15 K, x1 = 0.292	866.71	1275
313.15 K, x1 = 0.398	882.96	1260
313.15 K, x1 = 0.501	897.74	1248
313.15 K, x1 = 0.599	911.39	1239
313.15 K, x1 = 0.703	924.84	1231
313.15 K, x1 = 0.803	937.19	1224
313.15 K, x1 = 0.904	949.17	1219
313.15 K, x1 = 0.92	950.94	1218
313.15 K, x1 = 0.946	953.89	1216
313.15 K, x1 = 0.973	956.92	1215
313.15 K, x1 = 1	–	1214
318.15 K, x1 = 0.019	816.14	1307
318.15 K, x1 = 0.04	820.04	1303
318.15 K, x1 = 0.063	824.12	1298
318.15 K, x1 = 0.099	830.73	1291
318.15 K, x1 = 0.2	848.15	1273
318.15 K, x1 = 0.292	862.93	1258
318.15 K, x1 = 0.398	879.09	1244
318.15 K, x1 = 0.501	893.8	1231
318.15 K, x1 = 0.599	907.35	1223
318.15 K, x1 = 0.703	920.73	1214
318.15 K, x1 = 0.803	933.01	1207
318.15 K, x1 = 0.904	944.91	1202
318.15 K, x1 = 0.92	946.68	1201
318.15 K, x1 = 0.946	949.62	1200
318.15 K, x1 = 0.973	952.63	1199
318.15 K, x1 = 1	–	1198
323.15 K, x1 = 0.019	812.64	1291
323.15 K, x1 = 0.04	816.52	1286
323.15 K, x1 = 0.063	820.57	1281
323.15 K, x1 = 0.099	827.14	1274
323.15 K, x1 = 0.2	844.46	1256
323.15 K, x1 = 0.292	859.14	1242
323.15 K, x1 = 0.398	875.2	1227
323.15 K, x1 = 0.501	889.85	1215
323.15 K, x1 = 0.599	903.31	1206
323.15 K, x1 = 0.703	916.62	1198
323.15 K, x1 = 0.803	928.83	1191
323.15 K, x1 = 0.904	940.66	1186
323.15 K, x1 = 0.92	942.42	1185
323.15 K, x1 = 0.946	945.33	1183
323.15 K, x1 = 0.973	948.33	1182
323.15 K, x1 = 1	–	1181
